Results taken from paper PMC10817917, “Alkyl deoxyglycoside-polymyxin combinations against critical priority carbapenem-resistant gram-negative bacteria” (Scientific Reports, 2024).

Tested on: carbapenem-resistant Gram-negative clinical isolates vs Caco-2 cells
Assay: Lowest in vitro therapeutic index (lowest determined IC50/MIC)
Format: cell-based
Conditions: IC50 in Caco-2 cells/MIC
[1] = strain H P. aeruginosa CQ4924, + colistin 0.5 μg/mL

| Compound | Lowest in vitro TI (strain D E. cloacae CQ1941, + colistin 0.25 μg/mL) | Lowest in vitro TI [1] | Lowest in vitro TI (all test strains C-G, + colistin 0.25 μg/mL) |
| --- | --- | --- | --- |
| CCCCCCCCCCCCO[C@H]1C[C@H](O)[C@@H](O)[C@H](C)O1 [Compound 3, dodecyl 2,6-dideoxy-α-L-arabino-hexopyranoside] | approximately 13.7 | approximately 6.9 | – |
| CCCCCCCCCCCC[C@H]1O[C@H](C)C[C@H](O)[C@H]1O [Compound 5, 1-(4,6-dideoxy-α-D-xylo-hexopyranosyl)dodecane] | – | ~6.2 | approximately 6.3 |
